Assay results reported in patent US6706740B2, “Fungicidal heterocyclic aromatic amides and their compositions, methods of use and preparation” (Dow AgroSciences LLC, priority 1999, dated 2004).

Columns and labels:
[1] = test system: Leptosphaeria nodorum—LEPTNO; experiment: Glume Blotch of Wheat, in vivo whole plant, 24 Hour Protectant; details: 100 ppm spray, % control of fungal infection vs untreated plants
[2] = test system: Plasmopara viticola—PLASVI; experiment: Downy Mildew of Grape, in vivo whole plant, 24 Hour Protectant; details: 100 ppm, % control of fungal infection vs untreated plants
[3] = test system: Phytophthora infestans—PHYTIN; experiment: Late Blight of Tomato, in vivo whole plant, 24 Hour Protectant; details: 100 ppm spray, % control of fungal infection vs untreated plants
[4] = test system: Puccinia recondita—PUCCRT; experiment: Brown Rust of Wheat, in vivo whole plant, 24 Hour Protectant; details: 100 ppm spray, % control of fungal infection vs untreated plants
[5] = test system: Septoria tritici—SEPTTR; experiment: Leaf Blotch of Wheat, in vivo whole plant, 24 Hour Protectant; details: 100 ppm spray, % control of fungal infection vs untreated plants
[6] = test system: Erysiphe graminis—ERYSGT; experiment: Powdery Mildew of Wheat, in vivo whole plant, 24 Hour Protectant; details: 100 ppm spray, % control of fungal infection vs untreated plants

## COc1ccnc(C(=O)N[C@H]2COC(=O)[C@H](Cc3ccccc3)[C@@H](OC(=O)C(C)C)[C@H](C)OC2=O)c1OC(=O)N(C)C
[1]
  LEPTNO in vivo 1 Day Protectant: + +
[2]
  PLASVI in vivo 1 Day Protectant: − (<25% control of fungal infection)
[3]
  PHYTIN in vivo 1 Day Protectant: − (<25% control of fungal infection)
[4]
  PUCCRT in vivo 1 Day Protectant: + +
[5]
  SEPTTR in vivo 1 Day Protectant: + +
[6]
  ERYSGT in vivo 1 Day Protectant: − (<25% control of fungal infection)
